SMILES strings stand for the structures.

This test concerns the target Human immunodeficiency virus type 1 integrase (Human immunodeficiency virus 1) (UniProt Q7ZJM1). The test is described as follows: Selectivity for HIV1 integrase strand transfer activity over 3'-end processing activity.

For `O=C(C1=C(O)C(=O)N(c2nc3ccccc3s2)C1c1ccc2c(c1)OCO2)c1ccccc1` (stereo unspecified), the Ratio IC50 is 3.
